The nature of this data set: Photooxidation of DHN under visible light irradiation in aerobic solution, DHN absorption monitored at 301 nm. How it is done:
For a typical experiment, microliter amounts of standard solutions were combined, for illustration not limitation, microliter amounts of a standard solution of Fe(III) solutions (30 μL of 1.0×10^−2 M) and DHN solution (36 μL of 1.0×10^−2 M) added into a cuvette containing 3 mL of solution TMPyP (6.00×10^−6 M). Quartz cuvettes with 1 cm path-length and 3 mL volume were used for all measurements.
For singlet oxygenation of 1,5-dihydroxynaphthalene (DHN) by TMPyP in aqueous solution, a 3 mL solution of DHN (1.2×10^−4 M) and TMPyP (6.0×10^−6 M) was prepared by mixing 36 μL of 1×10^−2 M of DHN standard solution and 18 μL of 1×10^−3 M of TMPyP standard solution with ultrapure water. The solution was prepared at room temperature in an open atmosphere. Photooxygenation of samples was performed in a Rayonet photoreactor and monitored by recording a decrease of UV-vis absorption. For example, photoxygenation of DHN by TMPyP was performed in a Rayonet photoreactor for approximately twenty minutes at 28° C. and the photooxygenation of DHN was monitored by recording a decrease of UV-vis absorption of DHN at 301 nm for 20 minutes in 2 minutes intervals. […]

Consider `Oc1cccc(-c2c3nc(c(-c4cccc(O)c4)c4ccc([nH]4)c(-c4cccc(O)c4)c4nc(c(-c5cccc(O)c5)c5ccc2[nH]5)C=C4)C=C3)c1` [m−THP, meso-tetra(m-hydroxyphenyl)porphine], for which the “Times faster DHN photooxidation than without Fe(III)” value reads like this: (in the presence of 1.4×10^−4 M Fe(III) ions) 1.25; (in the presence of 5.0×10^−5 M Fe(III) ions) 1.17.
